Test results from publication PMC5319851 (Bioorganic & medicinal chemistry, 2016).

Tested on: primary pulmonary vascular endothelial cells (ECs)

## Oc1ccc(Cl)c2cccnc12 [Compound 22, 5-chloro-8-quinolinol]
  Host EC metabolism (WST-1) of uninfected ECs: stimulated EC metabolism
